# Structure probing of HIV-1 leader RNA with DMS

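Mutant RNA libraries with 1G, 2G or 3G starts, with or without cap, were folded at 37 °C for 30 min. Monomer and dimer bands were cut from native gels after folding in high salt (300 mM KCl, 5 mM MgCl2) or low salt (40 mM KCl, 0.1 mM MgCl2). Gel slices were treated with 170 mM dimethyl sulfate for 15 min at 37 °C and read by mutational profiling against an ethanol control.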

Sequence of the HIV-1 NL4-3 5' RNA, positions 1 to 437, as numbered in the source:
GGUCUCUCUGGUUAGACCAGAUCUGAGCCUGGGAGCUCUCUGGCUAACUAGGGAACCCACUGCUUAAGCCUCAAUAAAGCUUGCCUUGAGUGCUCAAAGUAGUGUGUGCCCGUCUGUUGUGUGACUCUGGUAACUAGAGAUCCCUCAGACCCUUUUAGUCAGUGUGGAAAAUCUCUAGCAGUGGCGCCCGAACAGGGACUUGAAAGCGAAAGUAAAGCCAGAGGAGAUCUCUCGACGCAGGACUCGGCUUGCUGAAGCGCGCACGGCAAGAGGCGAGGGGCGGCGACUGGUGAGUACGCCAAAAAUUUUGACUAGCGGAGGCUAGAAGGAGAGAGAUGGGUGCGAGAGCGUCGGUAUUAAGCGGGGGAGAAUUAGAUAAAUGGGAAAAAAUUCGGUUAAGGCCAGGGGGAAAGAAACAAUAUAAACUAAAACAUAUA

Values are winsor-normalised DMS reactivities of A and C; higher means more reactive, usually unpaired. One numbering serves 1G, 2G and 3G. A position is written with its base.

position,domain,2G capped low-salt dimer,2G capped low-salt monomer,2G uncapped high-salt dimer,2G uncapped high-salt monomer
C151,PBS,0.74,0.80,0.65,0.82
C152,PBS,0.82,0.80,0.82,0.87
A157,PBS,0.90,0.85,0.93,0.98
C160,PBS,0.05,0.05,0.04,0.05
A161,PBS,0.46,0.48,0.45,0.50
A168,PBS,0.44,0.46,0.41,0.42
A169,PBS,0.68,0.72,0.65,0.66
A170,PBS,0.50,0.52,0.52,0.61
A171,PBS,0.43,0.42,0.44,0.52
C173,PBS,0.03,0.03,0.03,0.03
C175,PBS,0.03,0.03,0.03,0.03
A177,PBS,0.26,0.25,0.25,0.24
C179,PBS,0.81,0.80,0.78,0.82
A180,PBS,0.58,0.55,0.58,0.60
C185,PBS,0.44,0.44,0.41,0.42
C187,PBS,0.03,0.03,0.03,0.03
C188,PBS,0.07,0.06,0.07,0.06
C189,PBS,0.10,0.08,0.10,0.09
A191,PBS,0.39,0.39,0.41,0.47
A192,PBS,0.75,0.84,0.68,0.79
C193,PBS,0.79,0.85,0.73,0.83
A194,PBS,0.89,1.08,0.84,1.01
A198,PBS,0.56,0.58,0.56,0.60
C199,PBS,0.45,0.45,0.45,0.43
A203,PBS,0.47,0.48,0.51,0.53
A204,PBS,0.70,0.68,0.73,0.73
A205,PBS,0.33,0.28,0.40,0.39
C207,PBS,0.55,0.47,0.56,0.42
A209,PBS,0.38,0.46,0.39,0.49
A210,PBS,0.46,0.55,0.48,0.64
A211,PBS,0.46,0.40,0.51,0.43
A214,PBS,0.28,0.24,0.30,0.29
A215,PBS,0.62,0.48,0.67,0.58
A216,PBS,0.67,0.53,0.78,0.60

4 of these entries, quoted again:

- C188 (domain PBS) = 2G capped low-salt dimer 0.07; 2G capped low-salt monomer 0.06; 2G uncapped high-salt dimer 0.07; 2G uncapped high-salt monomer 0.06
- A205 (domain PBS) = 2G capped low-salt dimer 0.33; 2G capped low-salt monomer 0.28; 2G uncapped high-salt dimer 0.40; 2G uncapped high-salt monomer 0.39
- A191 (domain PBS) = 2G capped low-salt dimer 0.39; 2G capped low-salt monomer 0.39; 2G uncapped high-salt dimer 0.41; 2G uncapped high-salt monomer 0.47
- C160 (domain PBS) = 2G capped low-salt dimer 0.05; 2G capped low-salt monomer 0.05; 2G uncapped high-salt dimer 0.04; 2G uncapped high-salt monomer 0.05

Data from the supplement of Ye et al. 2022, doi:10.1038/s41594-022-00746-2.